Where a SMILES comes first, the peptide text is derived from it.
Test: DSC, bilayer-to-hexagonal phase transition temperature (TH) of DiPoPE
Format: physicochemical

## CC[C@H](C)[C@H](NC(=O)[C@H](CCCCN)NC(=O)CNC(=O)[C@H](C)NC(=O)[C@@H](NC(=O)[C@H](CCCCN)NC(=O)[C@H](C)NC(=O)[C@@H](NC(=O)[C@H](CCCCN)NC(=O)CNC(=O)[C@H](C)NC(=O)[C@@H](NC(=O)[C@H](CCCCN)NC(=O)[C@H](C)NC(=O)[C@@H](NC(=O)[C@H](CCCCN)NC(=O)CNC(=O)[C@H](C)NC(=O)[C@@H](NC(=O)[C@@H](N)CCCCN)[C@@H](C)CC)[C@@H](C)CC)[C@@H](C)CC)[C@@H](C)CC)[C@@H](C)CC)C(=O)N[C@@H](C)C(N)=O [(KIAGKIA)3-NH2, KIAGKIAKIAGKIAKIAGKIA -NH2, reference compound] (H-KIAGKIAKIAGKIAKIAGKIA-NH2; N-terminus assumed)
DSC
  effect on TH of DiPoPE (in words): negligible effect
DiPoPE, Table 3
  Linear Regression: slope of TH vs. mole fraction of peptide: 132 ± 65

Reference: patent publication US20040249122A1, “Cationic, amphipathic beta-sheet peptides and uses thereof” (priority 2003, published 2004)
